Anti-infective test results gathered from many reports (values: NIAID ChemDB through PubChem).

All rows: tests in culture; species: Mycobacterium fortuitum

MIC50, MIC90 and the like: level of inhibition, or share of isolates inhibited. Conditions beyond the fields shown may differ between rows. Blank or dashed fields: not listed here.

SMILES | strain | method | read-out | result
CSc1ccccc1/C=N/NC(=O)c1cnc2cc(F)ccc2c1NC(CSc1ccccc1)CC(=O)N(C)C | ATCC 19542 | resazurin | MIC | >100 µg/mL
NC1CCN(c2c(F)cc3c(=O)c(C(=O)O)cn(C4CC4)c3c2Cl)C1 | 25 isolates |  | MIC90 | 2 µg/mL
CSCCC/C=N/NC(=O)c1cnc2cc(F)ccc2c1NC(CSc1ccccc1)CC(=O)N(C)C | ATCC 19542 | resazurin | MIC | >100 µg/mL
NC[C@H]1O[C@H](O[C@H]2[C@H](O)[C@@H](O[C@H]3O[C@H](CO)[C@@H](O)[C@H](N)[C@H]3O)[C@H](N)C[C@@H]2N)[C@H](N)C[C@@H]1O | ATCC 6841 |  | MIC | 64 µg/mL
CC(C)N=c1cc2n(-c3ccc(Cl)cc3)c3ccccc3nc-2cc1Nc1ccc(Cl)cc1 | 9738 |  | MIC | 33.3 µg/mL
NCC[C@H](O)C(=O)N[C@@H]1C[C@H](N)[C@@H](O[C@H]2O[C@H](CN)[C@@H](O)[C@H](O)[C@H]2O)[C@H](O)[C@H]1O[C@H]1O[C@H](CO)[C@@H](O)[C@H](N)[C@H]1O | 31 isolates |  | MIC50 | 8 µg/mL
COc1ccc(/C=N/NC(=O)c2cnc3cc(F)ccc3c2NC(CSc2ccccc2)CC(=O)N(C)C)cc1O | ATCC 19542 | resazurin | MIC | 5 µg/mL
C[C@H]1C[C@H](N)CN1c1cc2c(cc1F)c(=O)c(C(=O)O)cn2-c1ccc(F)cc1F | 25 isolates |  | MBC90 | >8 µg/mL
COc1ccc(/C=N/NC(=O)c2cnc3cccc(C(F)(F)F)c3c2NC(CSc2ccccc2)CC(=O)N(C)C)c(F)c1 | ATCC 19542 | resazurin | MIC | >100 µg/mL
CO[C@@]1(NC(=O)Cn2cnnn2)C(=O)N2C(C(=O)O)=C(CSc3nnc(C)s3)CSC21 | 1004-8 |  | MIC | >100 µg/mL
CC[C@H]1OC(=O)[C@H](C)[C@@H](O[C@H]2C[C@@](C)(OC)[C@@H](O)[C@H](C)O2)[C@H](C)[C@@H](O[C@@H]2O[C@H](C)C[C@H](N(C)C)[C@H]2O)[C@](C)(OC)C[C@@H](C)C(=O)[C@H](C)[C@@H](O)[C@]1(C)O | 25 isolates |  | MIC90 | >8 µg/mL
CO[C@@]1(NC(=O)CCCC(N)C(=O)O)C(=O)N2C(C(=O)O)=C(COC(C)=O)CSC21 | AO5 |  | MIC | >100 µg/mL
CC1COc2c(N3CCN(C)CC3)c(F)cc3c(=O)c(C(=O)O)cn1c23 | 25 isolates |  | MBC90 | >4 µg/mL
CO[C@@]1(NC(=O)Cc2cccs2)C(=O)N2C(C(=O)O)=C(COC(N)=O)CS[C@@H]21 | 1030-8 |  | MIC | 12.5 µg/mL
NC[C@@H]1O[C@H](O[C@H]2[C@@H](O)[C@H](O[C@@H]3[C@@H](O)[C@H](N)C[C@H](N)[C@H]3O[C@H]3O[C@H](CN)[C@@H](O)[C@H](O)[C@H]3N)O[C@@H]2CO)[C@H](N)[C@@H](O)[C@@H]1O | ATCC 6841 |  | MIC | 16 µg/mL
CO[C@@]1(NC(=O)Cc2ccccc2)C(=O)N2C(C(=O)[O-])=C(CSc3nnc(C)s3)CSC21 | 1260 |  | MIC | 25 µg/mL
CC[C@H]1OC(=O)[C@H](C)[C@@H](O[C@H]2C[C@@](C)(OC)[C@@H](O)[C@H](C)O2)[C@H](C)[C@@H](O[C@@H]2O[C@H](C)C[C@H](N(C)C)[C@H]2O)[C@](C)(O)C[C@@H](C)CN(C)[C@H](C)[C@@H](O)[C@]1(C)O | 25 isolates |  | MIC50 | >8 µg/mL
CO[C@@]1(NC(=O)C2SC(=C(C(N)=O)C(=O)[O-])S2)C(=O)N2C(C(=O)[O-])=C(CSc3nnnn3C)CS[C@@H]21 | 1048 |  | MIC | 50 µg/mL
CN(C)C(=O)CC(CSc1ccccc1)Nc1c(C(=O)N/N=C/c2ccc(Br)s2)cnc2cccc(C(F)(F)F)c12 | ATCC 19542 | resazurin | MIC | >100 µg/mL

For reference, 2 entries again:

SMILES	strain	method	read-out	result
CO[C@@]1(NC(=O)CCCC(N)C(=O)O)C(=O)N2C(C(=O)O)=C(COC(C)=O)CSC21	AO5		MIC	>100 µg/mL
CSCCC/C=N/NC(=O)c1cnc2cc(F)ccc2c1NC(CSc1ccccc1)CC(=O)N(C)C	ATCC 19542	resazurin	MIC	>100 µg/mL